In patent US6642365B1, “Anti-(retro)viral conjugates of saccharides and acetamidino or guanidino compounds” (Yeda Research and Development Co. Ltd., priority 2001, dated 2003):

Tests used:
MT-4 cells = experiment: Cytotoxicity in MT-4 cells, MTT; format: cell-based, human; conditions: viability of MT-4 cells, MTT assay
Method: (§1) The cells were infected by incubation with different titers of the HIV-1 strains for 2 hrs at 37° C. in the presence or absence of the AAC of the invention. Then the cells were washed from the virus by centrifugation at 400 g and the supernatants were discarded. The cells were resuspended in culture medium, supplemented with different concentrations of the test compounds. The cells were allowed to proliferate for 5 days, the number of viable cells was quantified by a tetrazolium-based colorimetric method (CellTiter 96® AQueous One solution Cell Proliferation Assay, Promega). Anti-HIV activity in P4-CCR5 MAGI cells was done as follows: cells (1×10^5/ml) were infected with 10 ng/ml of p24 antigen of HIV-1 Ba-L in the presence of varying concentrations of the test compound. 24 hours post infection, cells were washed twice with PBS and resuspended in the medium containing the appropriate drug concentration. Five days after infection the cells were washed with PBS and evaluated for β-galactosidase activity.

[1] = test system: MT-2 cells as well as PMBC lines ETH and IS; conditions: 2 days incubation
Method: as §1

Substance | CC50 (MT-4 cells) | CC50 [1]
SDF-1α | > 0.1 µM | –
Triargininamido-gentamicin conjugate [R3G] | > 3940 µM | > 500 µM
Hexa/penta-argininamido-neomycin B conjugate [NeoR] | – | 250 µM
